Source: patent US20250155433A1, “FLUORESCENT SENSORS FOR DETECTION OF SIDEROPHORES AND OTHER MOLECULES PRODUCED BY BACTERIAL PATHOGENS” (Kansas State University Research Foundation, priority 2021, published 2025)

Columns and labels:
Format in all cases: cell-based
K. pneumoniae HvKp2 = experiment: Siderophore concentrations in spent media, HvKp2; conditions: for Concentration in spent bacterial media, HvKp2: ferrated supernatant
E. coli CP9 = experiment: Siderophore concentrations in spent media, CP9; conditions: ferrated supernatant
K. pneumoniae HvKp1 = experiment: Siderophore concentrations in spent media, HvKp1; conditions: ferrated supernatant
E. coli MG1655 = experiment: Siderophore concentrations in spent media, MG1655; conditions: MOPS, 24 h, ferrated supernatant
E. coli Nissle 1917 = experiment: Siderophore concentrations in spent media, Nissle 1917; conditions: MOPS, 24 h, ferrated supernatant

Structure (SMILES) | Production by HvKpn2 (K. pneumoniae HvKp2; in MOPS) [mM] | Concentration in spent bacterial media, CP9 (E. coli CP9; M9, 24 h) [µM] | Concentration in spent bacterial media, CP9 (E. coli CP9; MOPS, 24 h) [µM] | Concentration in spent bacterial media, HvKp1 (K. pneumoniae HvKp1; M9, 24 h) [µM] | Concentration in spent bacterial media, HvKp1 (K. pneumoniae HvKp1; MOPS, 24 h) [µM] | Concentration in spent bacterial media, HvKp2 (K. pneumoniae HvKp2; M9, 24 h) [µM] | Concentration in spent bacterial media, HvKp2 (K. pneumoniae HvKp2; MOPS, 24 h) [µM] | Concentration in spent bacterial media, MG1655 (E. coli MG1655) [µM] | Concentration in spent bacterial media, Nissle (E. coli Nissle 1917) [µM]
CC(=O)N(O)CCCC[C@H](NC(=O)CC(O)(CC(=O)N[C@@H](CCCCN(O)C(C)=O)C(=O)O)C(=O)O)C(=O)O [Abn, aerobactin] | 0.6 |  |  |  |  |  |  |  | 
O=C(N[C@H]1COC(=O)[C@@H](NC(=O)c2cccc([O-])c2[O-])COC(=O)[C@@H](NC(=O)c2cccc([O-])c2[O-])COC1=O)c1cccc([O-])c1[O-].[Fe+3] [FeEnt, ferric enterobactin] |  | 0.2 ± 0.07 | 8.4 ± 0.7 | 0.43 ± 0.03 | 2.1 ± 0.07 | 0.267 ± 0.02 | 1.4 ± 0.07 |  | 
CC(=O)N([O-])CCCC[C@H](NC(=O)CC(O)(CC(=O)N[C@@H](CCCCN([O-])C(C)=O)C(=O)O)C(=O)[O-])C(=O)O.[Fe+3] [FeAbn, ferric aerobactin] |  | 0 | 0 | 210 ± 11 | 444 ± 91 | 186 ± 17 | 626 ± 90 |  | 
O=C(N[C@H]1COC(=O)[C@@H](NC(=O)c2cc([C@@H]3O[C@H](CO)[C@@H](O)[C@H](O)[C@H]3O)cc(O)c2[O-])COC(=O)[C@@H](NC(=O)c2cc([C@@H]3O[C@H](CO)[C@@H](O)[C@H](O)[C@H]3O)cc(O)c2[O-])COC1=O)c1cccc(O)c1[O-].[Fe+3] [FeGEnt] |  | 5.1 | 84 ± 0.7 | 2.8 | 6.9 ± 0.07 | 0.9 | 14.9 ± 0.07 | 11.1 ± 1.5 | 71.3 ± 0.2
